From paper PMC3662766

Amino acid sequences for entries named in this document (tags omitted).
UniProt Q9HC16, whole entry E259Q: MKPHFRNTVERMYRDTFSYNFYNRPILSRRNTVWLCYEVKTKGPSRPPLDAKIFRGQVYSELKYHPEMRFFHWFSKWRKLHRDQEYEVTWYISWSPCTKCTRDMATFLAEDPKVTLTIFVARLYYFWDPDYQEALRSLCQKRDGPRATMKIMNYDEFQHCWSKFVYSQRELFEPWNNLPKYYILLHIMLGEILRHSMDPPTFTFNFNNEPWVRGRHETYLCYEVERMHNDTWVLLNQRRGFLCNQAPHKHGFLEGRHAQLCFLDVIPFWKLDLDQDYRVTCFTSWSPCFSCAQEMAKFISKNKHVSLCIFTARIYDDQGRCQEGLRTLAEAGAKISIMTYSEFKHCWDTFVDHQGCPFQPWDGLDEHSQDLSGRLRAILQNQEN

Legend:
APOBEC3G (A3G) = APOBEC3G (A3G) (UniProt Q9HC16); assay: fluorescence anisotropy; conditions: RT buffer: 50 mM Tris pH 7.5 (printed '50 M'), 40 mM KCl, 10 mM MgCl2, 1 mM DTT, 50 nM p/t, 21 C, protein 0-5 uM
APOBEC3G E259Q E259Q = APOBEC3G E259Q E259Q (UniProt Q9HC16); assay: fluorescence anisotropy; conditions: RT buffer: 50 mM Tris pH 7.5 (printed '50 M'), 40 mM KCl, 10 mM MgCl2, 1 mM DTT, 50 nM p/t, 21 C, protein 0-5 uM
[1] = target: T1, HIV-1 reverse transcriptase p66/p51 (HIV-1) (UniProt P04585+P04585); assay: fluorescence anisotropy; conditions: RT buffer: 50 mM Tris pH 7.5 (printed '50 M'), 40 mM KCl, 10 mM MgCl2, 1 mM DTT, 50 nM p/t, 21 C, protein 0-5 uM
[2] = target: T1, HIV-1 reverse transcriptase p66/p51 (HIV-1); assay: fluorescence anisotropy, competition; conditions: primer chimera: nt 1-18 RNA, nt 19-24 DNA; RT buffer: 50 mM Tris pH 7.5 (printed '50 M'), 40 mM KCl, 10 mM MgCl2, 1 mM DTT; 50 nM p/t; 21 C; protein 0-5 uM
[3] = primer chimera: nt 1-18 RNA, nt 19-24 DNA

Row | Sequence | Kd (APOBEC3G (A3G); [3]) | Kd (APOBEC3G E259Q E259Q; [3]) | Kd [1, 3] | Kd [2] | Kd (APOBEC3G (A3G)) | Kd (APOBEC3G E259Q E259Q) | Kd [1]
1 | UGUUAGGACUCUGGUAACUAGAGAUCCCUCAGAUCACUCUAGACUGAGUAAAAAUCUCUAGCAGUGGCGCCCGAACAGGGACUUGAAAGCGAAAGUUAAUAGGGAC / GUCCCUGUUCGGGCGCCACTGCTA [PBS+6 p/t (24 nt RNA/DNA primer on 106 nt PBS RNA)] | 354 nM | 685 nM | 581 nM | 981 nM |  |  | 
2 | UGUUAGGACUCUGGUAACUAGAGAUCCCUCAGAUCACUCUAGACUGAGUAAAAAUCUCUAGCAGUGGCGCCCGAACAGGGACUUGAAAGCGAAAGUUAAUAGGGAC / GUCCCUGUUCGGGCGCCA [PBS p/t (18 nt RNA primer on 106 nt PBS RNA)] |  |  |  |  | 778 nM | 1100 nM | 2520 nM
